Pooled drug test results. Numbers come from NIAID ChemDB, via PubChem.

Shared fields: tests in culture; agent: HIV-1

Neighbouring rows are from separate reports.

SMILES	endpoint	strain	setting	read by	cell line	changes	result
O=C1N(Cc2ccc(CO)cc2)[C@H](Cc2ccccc2)[C@H](O)[C@@H](O)[C@@H](Cc2ccccc2)N1Cc1ccc(CO)cc1	EC50				MT-4		0.03 µM
C(=C\c1ccccc1)/CN1CCN(C(c2ccccc2)c2ccccc2)CC1	EC50	LAV			MT-4		>100 µg/mL
CCc1cc(NCc2nc3c(Cl)ccc(Cl)c3o2)c(=O)[nH]c1C	EC90	Clinical isolate (RT K70R)		p24	PBMC	RT-K70R	0.4 µM
Cc1cn([C@H]2C[C@H](N=[N+]=[N-])[C@@H](CO)O2)c(=O)[nH]c1=O	EC50	RF			MT-2		0.022 µM
CC(C)(C)OC(=O)N1CCCN(C(=O)OC(C)(C)C)CCN(C(=O)OC(C)(C)C)CCCN(C(=O)CCCC(=O)OC[C@H]2O[C@@H](n3ccc(N)nc3=O)CS2)CC1	EC50			syncytia	MT-4		5 µM
Cc1ccnc2c1NC(=O)c1cccnc1N2C1CC1	EC50	IIIB		syncytia	CEM	RT-Y181C	2.2 µg/mL
Cc1ccnc2c1NC(=O)c1cccnc1N2C1CC1	EC50	IIIB		MTT	MT-4	L100I	1.92 µM
Cc1cn([C@H]2C[C@H](N=[N+]=[N-])[C@@H](CO)O2)c(=O)[nH]c1=O	EC50	NL4-3		RT activity	CEM		<0.045 µM
CCC(=O)c1ccc(F)c([C@@H]2C[C@@H]2NC(=O)Nc2ccc(C#N)cn2)c1O	EC50	NL4-3		absorbance	PBMC		0.0006 µM
Cc1ccc(NC(=S)N[C@H](C)c2cccc3ccccc23)nc1	EC50	IIIB		p24	PBMC		0.0023 µM
O=c1[nH]cnc2c1ncn2[C@H]1CC[C@@H](CO)O1	EC50	XM-AZT-resistant		p24	PBMC	RT-M41L D67N K70R T215Y K219Q	<8.5 µM
Nc1ccccc1NC(=O)CSc1sc(Cl)nc1-c1ccc(Br)cc1Br	EC50	IIIB		MTT	MT-4	E138K	7.65 µM
c1cn(CCCNCc2ccc(CNCCCn3ccnc3)cc2)cn1	EC50			MTT	MT-4		>168.8 µM
Nc1nc2c(ncn2[C@H]2C[C@H](O)[C@@H](CO)O2)c(=O)o1	EC50	IIIB		RT activity	H9		>500 µg/mL
Cc1cn([C@H]2C=C[C@@H](COC(=O)CCCCN3CCCN(C(=O)OC(C)(C)C)CCN(C(=O)OC(C)(C)C)CCCN(C(=O)OC(C)(C)C)CC3)O2)c(=O)[nH]c1=O	EC50			syncytia	MT-4		10 µM
CC(C)c1ccc(C[C@@H]2[C@H](O)[C@@H](O)[C@@H](Cc3ccc(C(C)C)cc3)N(Cc3ccccc3)C(=O)N2Cc2ccccc2)cc1	EC90	RF		hybridisation	MT-2		>10 µM
C[C@@H](NC(=S)Nc1ccc(Br)cn1)c1cccc2ccccc12	EC50	RT multidrug-resistant (L74V V106A T215Y)		p24	PBMC	RT-L74V V106A T215Y	0.001 µM
Fc1cccc(F)c1C1SCc2nc3ccccc3n21	EC50			cytopathic effect	CEM	RT-K103N	15.6 µM
CCCc1cc(=O)oc2c3c(c4c(c12)OC(C)(C)C=C4)O[C@@H](C)[C@H](C)[C@@H]3O	EC50						0.5 µM
CCCOCc1cn([C@@H]2C[C@H](N=[N+]=[N-])[C@@H](CO)O2)c(=O)[nH]c1=O	EC50	IIIB		ELISA / antigen	MT-4		>100 µM
Nc1ccn([C@H]2CC[C@@H](CO)O2)c(=O)n1	EC50	BRU		p24	CEM		0.04 µM
Cc1cc([N+](=O)[O-])ccc1NC(=O)CSc1sc(Cl)nc1-c1ccc(Br)cc1Br	EC50	IIIB		MTT	MT-4	E138K	7.89 µM
Nc1nc2c(ncn2[C@H]2CC[C@@H](CO)C2)c(=O)o1	EC50	IIIB		RT activity	CEM		170 µg/mL
N[C@@H](CCC(=O)N[C@@H](CS)C(=O)NCC(=O)O)C(=O)O	EC50	LAV			MT-4		>100 µg/mL
CS(=O)(=O)c1ccc(C[C@@H]2[C@H](O)[C@@H](O)[C@@H](Cc3ccc(S(C)(=O)=O)cc3)N(Cc3ccccc3)C(=O)N2Cc2ccccc2)cc1	EC50	RF		hybridisation	MT-2		<0.47 µM
CC(C)Nc1cccnc1N1CCN(C(=O)c2cc3cc(NS(C)(=O)=O)ccc3[nH]2)CC1	EC50	IIIB		MTT	MT-4	E138K	0.06 µM
COc1cc(C)nc(N2C(=O)CSC2c2c(F)cccc2Cl)n1	EC50	IIIB		cytopathic effect	MT-4		0.056 µM
O=C1N(Cc2ccc(CO)cc2)[C@H](Cc2ccccc2)[C@H](O)[C@@H](O)[C@@H](Cc2ccccc2)N1Cc1ccc(CO)cc1	EC50	RF		hybridisation	MT-2		<0.136 µM
Cc1occc1C(=S)Nc1ccc(Cl)c(/C=N/OC(C)(C)C)c1	EC50	UC781-RS(RT-Y181C				RT-Y181C	0.9 µM
Cc1ccnc(N2C(=O)CSC2c2c(Cl)cccc2Cl)n1	EC50	IIIB		cytopathic effect	MT-4		0.044 µM
Cc1csc(NC(=S)N[C@H](C)c2cccc3ccccc23)n1	EC50	A17		p24	PBMC	RT-Y181C	0.145 µM
CC(=O)SCCOP(=O)(OCCSC(C)=O)OC[C@@H]1CC[C@H](n2cnc3c(N)ncnc32)O1	EC50	IIIB		cytopathic effect	CEM + CEM-SS		0.00056 µM
Cc1ccnc2c1NC(=O)c1cccnc1N2C1CC1	EC50	N119 RT-Y181C NNRTI-resistant		cytopathic effect	MT-2	RT-Y181C	>3.8 µM
CC(C)=CCOc1cc(NC(=S)c2ccoc2C)ccc1Cl	EC50	RF			CEM + CEM-SS		0.02 µM
CC(C)(C)OC(=O)N1CCCN(C(=O)OC(C)(C)C)CCN(C(=O)OC(C)(C)C)CCCN(CCCCC(=O)OC[C@@H]2CC[C@H](n3ccc(N)nc3=O)O2)CC1	EC50			syncytia	MT-4		0.5 µM
Cc1cn([C@H]2C[C@H](N=[N+]=[N-])[C@@H](CO)O2)c(=O)[nH]c1=O	EC50	IIIB		syncytia	CEM	RT-V179D	0.001 µg/mL
CC1=C(C(=O)Nc2ccccc2)SCCO1	EC50	RF		XTT	CEM + CEM-SS		>100 µM
CC1CCCCN1CCCNCc1ccc(CNCCCN2CCOCC2)cc1	EC50			MTT	MT-4		1.242 µM
Cc1ccnc2c1NC(=O)c1cccnc1N2C1CC1	EC50	NL4-3		cytopathic effect / XTT	CEM + CEM-SS	RT-A98G	0.2 µM
COc1cc(C)nc(N2C(=O)CSC2c2c(Cl)cccc2Cl)n1	EC50			cytopathic effect	CEM	RT-Y188H	6.21 µM
O=C1N(Cc2ccc(CO)cc2)[C@H](CC2CCCCC2)[C@H](O)[C@@H](O)[C@@H](CC2CCCCC2)N1Cc1ccc(CO)cc1	EC90	RF		hybridisation	MT-2		>10 µM
CC(=O)Nc1ccccc1S(=O)(=O)c1ccccc1	EC50	RF		cytopathic effect / XTT	CEM + CEM-SS		234 µM
CCCOCc1cn([C@H]2C[C@H](N=[N+]=[N-])[C@@H](CO)O2)c(=O)[nH]c1=O	EC50	IIIB		ELISA / antigen	MT-4		>100 µM
Cc1ccnc2c1NC(=O)c1cccnc1N2C1CC1	EC50	LAI		cytopathic effect / MTT	MT-4		0.032 µM
Cc1cn([C@H]2C[C@H](N=[N+]=[N-])[C@@H](CO)O2)c(=O)[nH]c1=O	EC50	RT multidrug-resistant (L74V V106A T215Y)		p24	PBMC	RT-L74V V106A T215Y	0.055 µM
COCc1cn([C@H]2C[C@H](N=[N+]=[N-])[C@@H](CO)O2)c(=O)[nH]c1=O	EC50	IIIB		ELISA / antigen	MT-4		>100 µM
C[C@H](Cn1cnc2c(N)ncnc21)OCP(=O)(O)O	EC50	IIIB		syncytia	CEM	RT-L100I	1.1 µg/mL
COC(=O)[C@H]1[C@H]2C[C@@H]3c4[nH]c5cc(OC)ccc5c4CCN3C[C@H]2C[C@@H](OC(=O)/C=C/c2cc(OC)c(OC)c(OC)c2)[C@@H]1OC	EC50	LAV			MT-4		>100 µg/mL
CCCCCCOCc1cn([C@H]2C[C@H](N=[N+]=[N-])[C@@H](CO)O2)c(=O)[nH]c1=O	EC50	IIIB		ELISA / antigen	MT-4		>100 µM
C=C(C)OC(=O)N1c2cc(Cl)ccc2NC(=S)C1(C)C	EC50	MN		p24	H9		0.007 µM
Cc1cc(C#N)cc(C)c1Oc1nc(Nc2ccc(C#N)cc2)nc(N)c1Br	EC50	IIIB		MTT	MT-4	E138K	0.008 µM
Cc1ccnc2c1NC(=O)c1cccnc1N2C1CC1	EC50			cytopathic effect	CEM	RT-L100I	0.24 µM
CC[C@@]1(O)C(=O)OCc2c1cc1n(c2=O)Cc2c-1nc1ccccc1c2CO	EC50	KM018		p24 / ELISA / antigen	PBMC		0.0009 µg/mL
Nc1nc2c(ncn2[C@@H]2O[C@H](CO)[C@@H](O)[C@H]2O)c(=O)o1	EC50	IIIB		RT activity	H9		>500 µg/mL
COc1ccc2c(c1)N(C(=O)OC(C)C)[C@@H](CSC)C(=S)N2	EC50	MN		p24	H9		0.006 µM
CC=CCOc1cc(NC(=S)c2ccoc2C)ccc1OC	EC50	UC781-RS(RT-Y181C				RT-Y181C	1.6 µM
Cc1cn([C@H]2C[C@H](N=[N+]=[N-])[C@@H](CO)O2)c(=O)[nH]c1=O	EC50	IIIB		cytopathic effect	CEM + CEM-SS		0.0048 µM
CN(Cc1cc(Br)cc(Br)c1N)C1CCCCC1	EC50	LAV			MT-4		>100 µg/mL
Cc1cn([C@H]2C[C@H](N=[N+]=[N-])[C@@H](CO)O2)c(=O)[nH]c1=O	EC50	8564 CLADE D CLADE D		p24	PBMC		0.015 µM
COc1cc(CN2C(=O)N(CC3CC3)N(Cc3ccccc3)C[C@@H](O)[C@H]2Cc2ccccc2)ccc1O	EC50				MT-4		0.17 µM
CN(C)c1cccc(C[C@@H]2[C@H](O)[C@@H](O)[C@@H](Cc3cccc(N(C)C)c3)N(Cc3ccccc3)C(=O)N2Cc2ccccc2)c1	EC50	RF		hybridisation	MT-2		<1.2 µM
CCOC(=O)[C@H](CS)NC(=O)CC[C@H](N)C(=O)O	EC50	NL4-3		p24	H9		<1600 µM
Nc1nc2c(ncn2[C@@H]2O[C@H](COP(=O)(O)O)[C@@H](O)[C@H]2O)c(=O)o1	EC50	IIIB		RT activity	H9		>500 µg/mL
Cc1cn([C@H]2C[C@H](N=[N+]=[N-])[C@@H](CO)O2)c(=O)[nH]c1=O	EC50			cytopathic effect	CEM	RT-E138K	0.016 µM
Cc1cn([C@H]2C[C@H](N=[N+]=[N-])[C@@H](CO)O2)c(=O)[nH]c1=O	EC90	XM-Q151M		p24	PBMC	RT-A62V V75I F77C F116Y Q151M	>375 µM
O=C(Cc1ccc(CNCCCN2CCCC2)cc1)NCCCN1CCOCC1	EC50			MTT	MT-4		>62.1 µM
CCN(c1ncccc1NC(C)(C)C)C1CCN(C(=O)c2cc3cc(NS(C)(=O)=O)ccc3[nH]2)CC1	EC90	Isolate 458		p24	PBMC		0.03 µM
O=[N+]([O-])c1ccccc1S(=O)(=O)c1ccccc1	EC50	RF			C-344		15.9 µM
Nc1ccn([C@H]2CC[C@@H](CO)O2)c(=O)n1	EC50			syncytia	MT-4		0.5 µM
Cc1cn([C@H]2C[C@H](N=[N+]=[N-])[C@@H](CO)O2)c(=O)[nH]c1=O	EC50	NL4-3		p24	MT-2	RT-A360T	0.007 µM
COc1ccccc1C[C@@H]1[C@H](O)[C@@H](O)[C@@H](Cc2ccccc2OC)N(Cc2ccccc2)C(=O)N1Cc1ccccc1	EC50	RF		hybridisation	MT-2		<8.8 µM
Cc1cc(/C=C/C#N)cc(C)c1Nc1ccnc(Nc2ccc(C#N)cc2)n1	EC50	92BR014		absorbance	PBMC		0.0024 µM
c1cc(CNCCCN2CCOCC2)ccc1CNCCCN1CCOCC1	EC50			MTT	MT-4		>320.1 µM
Cc1cc(C)nc(N2C(=O)CSC2c2c(Cl)cccc2Cl)n1	EC50			cytopathic effect	CEM	RT-L100I	0.23 µM
C[C@H]1/C=C/[C@@]2(C)CC[C@@H](C(C)(C)O)[C@@H]2[C@@H](O)C[C@](C)(O)/C=C/C1	EC50	95BRSP007 R5X4		p24	PBMC		<25 µM
O=C(Cc1ccc(CC(=O)NCCCN2CCCC2)cc1)NCCCN1CCCC1	EC50			MTT	MT-4		>156 µM
O=C(Nc1ccccc1)C1=COCCS1	EC50	IIIB HEPT-resistant (RT P236L)		cytopathic effect / XTT	CEM + CEM-SS	RT-P236L	1.4 µM
c1cc(CNCCCN2CCCCC2)ccc1CNCCCN1CCCCC1	EC50			MTT	MT-4		0.362 µM
CCc1c(Sc2ccccn2)n(COCc2ccccc2)c(=O)[nH]c1=O	EC50	IIIB		cytopathic effect / XTT	CEM + CEM-SS	RT-A98G V108I	0.9 µM
O=C1N(Cc2ccc(CO)cc2)[C@H](Cc2ccccc2)[C@H](O)CN(Cc2ccoc2)N1Cc1ccc(CO)cc1	EC50				MT-4		0.1 µM
Nc1nc2c(ncn2[C@H]2CC[C@@H](CO)O2)c(=O)o1	EC50	IIIB	chronic infection	RT activity	U-937/HIV-1(IIIB) + U-937		>100 µg/mL
CC(C)(C)NC(=O)[C@@H]1C[C@@H]2CCCC[C@@H]2CN1C[C@@H](O)[C@H](Cc1ccccc1)NC(=O)[C@H](CC(N)=O)NC(=O)c1ccc2ccccc2n1	EC50	HII2-1		RT activity	MT-2		0.02 µM

For reference, 9 entries again:

SMILES	endpoint	strain	setting	read by	cell line	changes	result
c1cc(CNCCCN2CCCCC2)ccc1CNCCCN1CCCCC1	EC50			MTT	MT-4		0.362 µM
CC(C)Nc1cccnc1N1CCN(C(=O)c2cc3cc(NS(C)(=O)=O)ccc3[nH]2)CC1	EC50	IIIB		MTT	MT-4	E138K	0.06 µM
Fc1cccc(F)c1C1SCc2nc3ccccc3n21	EC50			cytopathic effect	CEM	RT-K103N	15.6 µM
CCc1c(Sc2ccccn2)n(COCc2ccccc2)c(=O)[nH]c1=O	EC50	IIIB		cytopathic effect / XTT	CEM + CEM-SS	RT-A98G V108I	0.9 µM
Cc1ccnc2c1NC(=O)c1cccnc1N2C1CC1	EC50	NL4-3		cytopathic effect / XTT	CEM + CEM-SS	RT-A98G	0.2 µM
CC(C)(C)NC(=O)[C@@H]1C[C@@H]2CCCC[C@@H]2CN1C[C@@H](O)[C@H](Cc1ccccc1)NC(=O)[C@H](CC(N)=O)NC(=O)c1ccc2ccccc2n1	EC50	HII2-1		RT activity	MT-2		0.02 µM
COc1cc(CN2C(=O)N(CC3CC3)N(Cc3ccccc3)C[C@@H](O)[C@H]2Cc2ccccc2)ccc1O	EC50				MT-4		0.17 µM
Cc1cc(/C=C/C#N)cc(C)c1Nc1ccnc(Nc2ccc(C#N)cc2)n1	EC50	92BR014		absorbance	PBMC		0.0024 µM
C(=C\c1ccccc1)/CN1CCN(C(c2ccccc2)c2ccccc2)CC1	EC50	LAV			MT-4		>100 µg/mL

An empty or dashed field is not shown. ECn is the concentration giving n% inhibition of infection, replication or growth.